The values that follow come from doi:10.1101/2023.11.21.567704v1 (biorxiv, 2023).

Protein sequences, listed by entry. Tags and fused reporters are not part of them.
UniProt P9WNC5, whole entry: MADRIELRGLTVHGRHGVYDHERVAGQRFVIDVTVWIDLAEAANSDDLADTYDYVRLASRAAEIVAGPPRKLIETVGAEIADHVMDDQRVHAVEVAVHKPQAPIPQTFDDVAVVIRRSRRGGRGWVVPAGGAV

The assay concerns the target MtbFolB (Mycobacterium tuberculosis, UniProt P9WNC5). As to the kind of experiment: end-point fluorescence assay. It counts as biochemical. To be noted: 5 µM DHNP, 14 nM enzyme, pH 8.0, 24 °C, 1% DMSO.
`CN(C)c1ccc(NS(=O)(=O)c2ccc(Br)s2)cc1` registered an IC50 of 15.4 µM. The figure for `COc1ccc(NC(=O)c2c(C)sc3c(=O)n(C4CCCCC4)cnc23)c(OC)c1` is > 100 µM. Next, `CCc1ccc(NC(=O)c2cn(-c3cc(-c4nc(CC)no4)ccn3)cn2)cc1`: > 100 µM; `COc1ccc(C)cc1NC(=O)c1c(C)sc2c(=O)n(C3CCCCC3)cnc12`: > 100 µM. Take `Cc1nn(-c2nc3ccccc3s2)c2c1C(c1ccccc1OC(C)C)SCC(=O)N2` (stereo not drawn): the IC50 was > 100 µM. Next, `CCOC(=O)c1cc(S(=O)(=O)Nc2ccc(N(C)C)cc2)n[nH]1`: 2.6 µM.
